Test results as given in paper PMC8270262 (Molecules, 2021).

Molecular target: TBEV NS2B–NS3^pro (Tick-borne encephalitis virus, UniProt Q01299)
Assay: FRET-based inhibition assay of NS2B-NS3pro (384-well)

Compound | Inhibition of NS2B-NS3pro (in words) (FRET assay, confirmed by SDS-PAGE analysis) | IC50 (read-out: IC50, NS2B-NS3pro, 2.5 μM enzyme, 0.25 μM substrate, 25 °C, 3.5 h, β-ME omitted for DTNB) [µM]
CC(=O)N[C@@H](CC(C)C)C(=O)N[C@@H](CC(C)C)C(=O)N[C@H](C=O)CCCNC(=N)N | no inhibition observed | –
5,5-dithio-bis-(2-nitrobenzoic acid) | – | 303
